Data as given in PubChem BioAssay AID504761 (Drosophila RNAi Screening Center, 2011).

Aim: 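Genome-wide fly cell screen for genes dengue virus requires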 (primary screen)
System: D.Mel-2 cells from Drosophila
Knock-down reagent: long dsRNA against Drosophila genes
Treatment: infection with dengue virus type 2; dose and infection time not stated
Measurement: 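Per well on two replicate plates, imaging gave the percent of cells positive for viral envelope protein, ranked by infection, and a nuclear count of cells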
Scale: infection score: higher = more virus-infected cells; cell count: higher = more cells in the well
Rule for the call: 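Low infection ranks in the two replicates (chance level up to 0.065) followed by a retest with a 1.5-fold or larger significant decrease, p below 0.05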
Calls: active = confirmed: knock-down lowers infection; inactive = not picked or not confirmed
The screen tested about 22,000 reagents; shown is a random part of those with a known target gene and a result. Over the whole deposit, 116 (0.52%) were called active. 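Calls depend on retest data that are not deposited; infection was ranked per plate without normalising between plates; the unit of the infection score is not given.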 The raw values are shown without normalisation. The record does not give: the amount of reagent, the time to read-out.

The opening 2 records as a preview:
Gene | amplicon | infection score, replicate 1 | infection score, replicate 2 | cell count, replicate 1 | cell count, replicate 2 | Outcome
Awh | DRSC08140 | 0.56 | 2.42 | 6461 | 6209 | inactive
mRpL40 | DRSC15749 | 16.3 | 9.82 | 4683 | 5083 | inactive

Results, repeating the preview:
Gene | amplicon | infection score, replicate 1 | infection score, replicate 2 | cell count, replicate 1 | cell count, replicate 2 | Outcome
Awh | DRSC08140 | 0.56 | 2.42 | 6461 | 6209 | inactive
mRpL40 | DRSC15749 | 16.3 | 9.82 | 4683 | 5083 | inactive
mRpL40 | DRSC27264 | 7.13 | 23.7 | 5611 | 5694 | inactive
CG9864 | DRSC07346 | 2.42 | 1.3 | 6288 | 6461 | inactive
CG9864 | DRSC28765 | – | – | 242 | 338 | inactive
meru | DRSC09400 | – | 0.71 | 1181 | 6227 | inactive
meru | DRSC10215 | 0.37 | 2.44 | 6166 | 6148 | inactive
Art1 | DRSC16063 | 15.1 | 6.07 | 5911 | 6246 | inactive
yellow-e | DRSC12966 | 3.66 | 1.64 | 6198 | 4822 | inactive
yellow-e | DRSC16563 | 5.84 | 20.9 | 6801 | 6033 | inactive
BigH1 | DRSC15491 | 3.67 | 5.11 | 6269 | 6492 | inactive
BigH1 | DRSC27817 | 19.3 | 27.2 | 6984 | 5765 | inactive
CG8925 | DRSC16455 | 9.21 | 9.94 | 6408 | 6472 | inactive
CG8925 | DRSC16456 | 3.57 | 10.3 | 6306 | 6112 | inactive
CG8925 | DRSC16457 | 8.32 | 17 | 6109 | 5650 | inactive
CG15395 | DRSC00409 | 1.17 | 1.79 | 6658 | 6551 | inactive
up | DRSC20382 | 18 | 14.9 | 6246 | 6601 | inactive
up | DRSC28798 | 14.6 | 5.19 | 2929 | 2390 | inactive
ND-ASHI | DRSC18291 | 2.34 | 2.38 | 6419 | 6588 | inactive
ND-ASHI | DRSC27165 | 3.99 | 28.2 | 6464 | 5877 | inactive
Ccp84Ac | DRSC12588 | 7.7 | 25.6 | 5951 | 5167 | inactive
Ccp84Ac | DRSC25631 | 5.41 | 1.63 | 6538 | 6740 | inactive
muskelin | DRSC07273 | 5.71 | 10.1 | 6639 | 6398 | inactive
CG14325 | DRSC14804 | 4.08 | 1.5 | 5903 | 5716 | inactive
Nup54 | DRSC07282 | 9.38 | 11.8 | 5417 | 5817 | inactive
COX5A | DRSC16611 | 5.83 | 15.7 | 5005 | 4821 | inactive
Pen | DRSC03396 | 15.7 | 7.79 | 6180 | 6533 | inactive
CG14780 | DRSC18566 | 4.66 | 5.15 | 6679 | 5980 | inactive
CG32548 | DRSC19627 | 1.82 | 6.83 | 6438 | 6665 | inactive
CG32548 | DRSC19982 | 1.08 | 6.97 | 6586 | 6769 | inactive
CG32548 | DRSC28857 | – | – | 271 | 387 | inactive
AttB | DRSC06734 | 29.8 | 20.3 | 5860 | 4219 | inactive
AttB | DRSC28997 | 16.6 | 16 | 6318 | 6162 | inactive
CG9676 | DRSC20204 | 9.68 | 2.99 | 5959 | 6619 | inactive
pod1 | DRSC18362 | 7.32 | 3.75 | 6752 | 6584 | inactive
pod1 | DRSC23544 | 1.79 | 5.54 | 5925 | 5761 | inactive
RapGAP1 | DRSC02293 | 4.05 | 7.21 | 6228 | 6640 | inactive
RapGAP1 | DRSC02294 | 2.48 | 6.08 | 6412 | 6337 | inactive
RapGAP1 | DRSC03406 | 4.91 | 0.96 | 5988 | 6385 | inactive
RapGAP1 | DRSC28628 | 18.7 | 13.9 | 6563 | 6309 | inactive
RapGAP1 | DRSC29428 | 14.3 | 21.2 | 3092 | 3996 | inactive
CG11808 | DRSC06088 | 11.8 | 6.34 | 2767 | 3109 | inactive
CG11808 | DRSC27380 | 9.46 | 13 | 6202 | 5984 | inactive
CG6583 | DRSC02972 | 0.93 | 3.11 | 6230 | 6756 | inactive
CG6583 | DRSC27517 | 4.09 | 6.31 | 6569 | 6723 | inactive
nwk | DRSC10442 | 2.52 | 0.52 | 6234 | 6702 | inactive
CG4502 | DRSC23237 | 1.32 | 10.4 | 6504 | 6551 | inactive
trc | DRSC11406 | 8.54 | 15.4 | 6231 | 5907 | inactive
trc | DRSC29426 | 7.58 | 18.9 | 5076 | 3947 | inactive
MED17 | DRSC16889 | 28.9 | 12.1 | 5648 | 6596 | inactive
CG9667 | DRSC16535 | 18.7 | 11.6 | 3227 | 3130 | inactive
CG9667 | DRSC23667 | 11.8 | 12.9 | 4281 | 4161 | inactive
Ankle2 | DRSC20105 | 7.74 | 8.41 | 6486 | 6421 | inactive
Ankle2 | DRSC20106 | 6.54 | 7.04 | 6410 | 6517 | inactive
CG34057 | DRSC08375 | 1.05 | 2.33 | 5605 | 5886 | inactive
ppk3 | DRSC04275 | 14.2 | 30.5 | 4818 | 6107 | inactive
ppk3 | DRSC25960 | 7.05 | 2.23 | 6170 | 6591 | inactive
Syn | DRSC16876 | 3.75 | – | 7021 | 457 | inactive
Syn | DRSC26448 | 3.5 | 3.32 | 6597 | 6031 | inactive
